Consider eight compounds from patent publication US10414808B2 (priority 2012, dated 2019).

The chains behind the UniProt entries cited, without tags or fusion partners.
UniProt Q99250, whole entry, looked up: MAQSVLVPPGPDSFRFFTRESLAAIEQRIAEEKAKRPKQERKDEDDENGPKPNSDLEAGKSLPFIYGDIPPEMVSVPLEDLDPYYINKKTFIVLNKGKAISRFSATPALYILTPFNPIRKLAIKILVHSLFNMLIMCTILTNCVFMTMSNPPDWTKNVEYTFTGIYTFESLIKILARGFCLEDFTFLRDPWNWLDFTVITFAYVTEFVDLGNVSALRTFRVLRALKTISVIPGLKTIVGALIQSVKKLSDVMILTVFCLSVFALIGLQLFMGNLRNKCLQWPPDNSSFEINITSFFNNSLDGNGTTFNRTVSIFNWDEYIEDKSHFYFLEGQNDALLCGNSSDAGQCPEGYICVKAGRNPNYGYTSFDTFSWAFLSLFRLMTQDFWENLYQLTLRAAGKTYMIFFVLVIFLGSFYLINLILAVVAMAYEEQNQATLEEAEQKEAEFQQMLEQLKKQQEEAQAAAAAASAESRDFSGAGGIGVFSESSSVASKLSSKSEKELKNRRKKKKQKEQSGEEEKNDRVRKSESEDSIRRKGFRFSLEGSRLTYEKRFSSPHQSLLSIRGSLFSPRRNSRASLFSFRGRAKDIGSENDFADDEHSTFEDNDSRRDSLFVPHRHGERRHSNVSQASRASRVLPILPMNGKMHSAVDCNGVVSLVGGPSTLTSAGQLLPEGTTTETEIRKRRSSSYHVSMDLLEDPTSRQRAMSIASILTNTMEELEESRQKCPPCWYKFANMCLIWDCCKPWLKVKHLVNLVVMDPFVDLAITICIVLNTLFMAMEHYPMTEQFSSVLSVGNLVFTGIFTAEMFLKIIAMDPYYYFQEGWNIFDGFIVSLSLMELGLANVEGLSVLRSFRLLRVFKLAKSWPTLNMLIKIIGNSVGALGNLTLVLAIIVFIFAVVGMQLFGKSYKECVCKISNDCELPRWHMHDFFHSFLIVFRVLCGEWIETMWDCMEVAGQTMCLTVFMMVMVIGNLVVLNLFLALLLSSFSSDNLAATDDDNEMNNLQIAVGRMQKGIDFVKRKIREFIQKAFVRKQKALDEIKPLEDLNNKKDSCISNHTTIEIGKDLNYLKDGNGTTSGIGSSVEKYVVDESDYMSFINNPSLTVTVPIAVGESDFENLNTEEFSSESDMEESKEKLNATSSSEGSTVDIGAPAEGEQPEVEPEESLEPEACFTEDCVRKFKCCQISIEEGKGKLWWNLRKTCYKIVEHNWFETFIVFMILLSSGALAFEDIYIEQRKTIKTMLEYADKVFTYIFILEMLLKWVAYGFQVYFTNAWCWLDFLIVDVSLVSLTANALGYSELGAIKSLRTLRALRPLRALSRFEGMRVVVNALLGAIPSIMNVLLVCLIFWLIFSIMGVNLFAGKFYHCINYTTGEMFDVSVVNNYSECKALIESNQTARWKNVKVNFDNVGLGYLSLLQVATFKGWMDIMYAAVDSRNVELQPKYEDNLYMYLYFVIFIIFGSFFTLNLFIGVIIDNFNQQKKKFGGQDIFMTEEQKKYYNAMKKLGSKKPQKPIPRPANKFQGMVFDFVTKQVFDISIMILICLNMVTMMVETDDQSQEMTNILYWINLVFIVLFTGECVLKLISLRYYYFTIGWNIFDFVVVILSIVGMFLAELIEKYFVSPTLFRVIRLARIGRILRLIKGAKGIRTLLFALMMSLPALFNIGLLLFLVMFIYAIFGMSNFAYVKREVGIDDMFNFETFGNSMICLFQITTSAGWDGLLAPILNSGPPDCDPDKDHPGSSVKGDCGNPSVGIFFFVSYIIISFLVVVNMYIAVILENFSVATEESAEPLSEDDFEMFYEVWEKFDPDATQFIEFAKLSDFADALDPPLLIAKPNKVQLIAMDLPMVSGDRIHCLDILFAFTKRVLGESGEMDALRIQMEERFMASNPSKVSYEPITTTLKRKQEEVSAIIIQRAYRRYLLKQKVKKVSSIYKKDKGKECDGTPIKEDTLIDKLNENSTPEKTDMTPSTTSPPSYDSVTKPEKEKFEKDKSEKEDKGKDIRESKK
UniProt Q15858, whole entry W1161R, looked up: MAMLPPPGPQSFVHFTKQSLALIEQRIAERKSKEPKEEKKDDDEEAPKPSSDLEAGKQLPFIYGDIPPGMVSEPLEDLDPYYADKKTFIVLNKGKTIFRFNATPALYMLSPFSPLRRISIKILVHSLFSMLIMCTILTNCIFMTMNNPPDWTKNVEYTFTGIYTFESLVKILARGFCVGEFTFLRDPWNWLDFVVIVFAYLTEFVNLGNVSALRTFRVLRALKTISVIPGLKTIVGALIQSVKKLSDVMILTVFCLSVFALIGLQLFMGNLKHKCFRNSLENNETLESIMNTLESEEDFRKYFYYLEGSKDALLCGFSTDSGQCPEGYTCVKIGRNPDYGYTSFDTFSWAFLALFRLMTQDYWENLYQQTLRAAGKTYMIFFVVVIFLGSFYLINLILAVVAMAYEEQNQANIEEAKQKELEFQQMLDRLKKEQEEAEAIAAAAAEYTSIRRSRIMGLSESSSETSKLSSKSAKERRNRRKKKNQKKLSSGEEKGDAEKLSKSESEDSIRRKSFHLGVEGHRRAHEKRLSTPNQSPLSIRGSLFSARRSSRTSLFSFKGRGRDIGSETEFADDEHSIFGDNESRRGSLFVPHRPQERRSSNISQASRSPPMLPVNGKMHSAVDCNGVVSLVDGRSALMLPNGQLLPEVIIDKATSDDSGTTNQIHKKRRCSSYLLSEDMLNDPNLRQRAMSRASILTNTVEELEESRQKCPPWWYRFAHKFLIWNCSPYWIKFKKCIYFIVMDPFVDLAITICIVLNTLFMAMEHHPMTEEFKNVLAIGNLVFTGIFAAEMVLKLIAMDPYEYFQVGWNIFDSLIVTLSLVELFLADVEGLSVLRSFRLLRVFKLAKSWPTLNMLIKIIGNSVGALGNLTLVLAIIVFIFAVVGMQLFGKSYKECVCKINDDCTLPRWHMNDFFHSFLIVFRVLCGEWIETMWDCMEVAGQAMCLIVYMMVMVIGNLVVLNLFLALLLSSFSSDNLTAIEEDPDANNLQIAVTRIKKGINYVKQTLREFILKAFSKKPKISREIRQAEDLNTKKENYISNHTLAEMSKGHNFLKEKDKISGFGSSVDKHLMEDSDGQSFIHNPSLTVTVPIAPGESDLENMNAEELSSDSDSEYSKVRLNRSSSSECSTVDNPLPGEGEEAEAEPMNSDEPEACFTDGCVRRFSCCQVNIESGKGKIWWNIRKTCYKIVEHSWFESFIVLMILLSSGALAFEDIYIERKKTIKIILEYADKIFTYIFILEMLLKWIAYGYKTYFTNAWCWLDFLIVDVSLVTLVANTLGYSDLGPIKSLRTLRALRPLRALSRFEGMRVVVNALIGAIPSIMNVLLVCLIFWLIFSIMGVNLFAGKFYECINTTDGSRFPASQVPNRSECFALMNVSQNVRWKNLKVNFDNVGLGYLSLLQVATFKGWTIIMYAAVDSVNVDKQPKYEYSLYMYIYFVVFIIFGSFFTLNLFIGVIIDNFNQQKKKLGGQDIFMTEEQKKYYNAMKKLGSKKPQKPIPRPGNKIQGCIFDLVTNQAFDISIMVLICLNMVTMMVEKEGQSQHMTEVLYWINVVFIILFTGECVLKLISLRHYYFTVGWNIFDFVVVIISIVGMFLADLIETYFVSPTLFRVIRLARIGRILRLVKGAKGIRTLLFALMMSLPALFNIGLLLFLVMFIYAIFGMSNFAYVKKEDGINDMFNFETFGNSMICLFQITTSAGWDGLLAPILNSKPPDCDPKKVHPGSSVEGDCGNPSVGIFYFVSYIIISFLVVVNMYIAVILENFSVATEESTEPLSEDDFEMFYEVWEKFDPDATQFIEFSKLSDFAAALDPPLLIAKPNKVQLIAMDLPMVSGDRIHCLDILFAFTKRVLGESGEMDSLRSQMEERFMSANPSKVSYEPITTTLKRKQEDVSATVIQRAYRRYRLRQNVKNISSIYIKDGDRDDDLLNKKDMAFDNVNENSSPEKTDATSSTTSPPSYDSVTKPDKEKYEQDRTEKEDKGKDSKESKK

In test [1] the target is Nav1.2 (Homo sapiens, UniProt Q99250). In words: IC50 (Nav1.2) µM. The conditions noted are these: read-out: IC50 (Nav1.2) µM.
The target in test [2] is Nav1.7 (Homo sapiens, UniProt Q15858, W1161R). The experiment in a line: IC50 (Nav1.7) µM. To be noted: read-out: IC50 (Nav1.7) µM.

In general, IC50 refers to the midpoint of a concentration-inhibition curve. On to `CC[C@H](C)[C@@H]1NC(=O)[C@H](CCCNC(=N)N)NC(=O)[C@H](CC(C)C)NC(=O)[C@@H](NC(=O)[C@H](CC(N)=O)NC(=O)[C@@H]2CCCN2C(=O)CN)CSSC[C@@H]2NC(=O)[C@@H]3CSSC[C@@H](C(=O)N[C@@H](CCCCN)C(=O)N[C@@H](Cc4c[nH]c5ccccc45)C(=O)N[C@@H](CCC(N)=O)C(=O)N[C@H](C(=O)N[C@H](C(=O)N[C@@H](CCCCN)C(=O)O)[C@@H](C)CC)[C@@H](C)CC)NC(=O)[C@H](Cc4c[nH]c5ccccc45)NC(=O)[C@H](CCCNC(=N)N)NC(=O)[C@H]([C@@H](C)O)NC(=O)[C@H](CCCCN)NC(=O)[C@H](CCCNC(=N)N)NC(=O)[C@H](CO)NC(=O)[C@H](CSSC[C@H](NC(=O)[C@H](C)NC(=O)[C@H](CCCCN)NC(=O)[C@H](Cc4ccccc4)NC1=O)C(=O)N[C@@H](CC(N)=O)C(=O)N1CCC[C@H]1C(=O)N[C@@H](CO)C(=O)N[C@@H](CC(N)=O)C(=O)N[C@@H](CC(=O)O)C(=O)N[C@@H](CCC(N)=O)C(=O)N3)NC(=O)[C@H](C(C)C)NC(=O)[C@H](CC(C)C)NC(=O)[C@H](CCCCN)NC(=O)[C@H](CO)NC(=O)[C@H](CO)NC(=O)[C@H](CCCCN)NC2=O`, for which the half-inhibitory concentration (IC50) in test [1] turned out to be 0.05 µM; in test [2], 0.02 µM.

For the compound `CC[C@H](C)[C@@H]1NC(=O)[C@H](CCC(=O)O)NC(=O)[C@H](CC(C)C)NC(=O)[C@@H](NC(=O)[C@H](CC(N)=O)NC(=O)[C@@H]2CCCN2C(=O)CN)CSSC[C@@H]2NC(=O)[C@@H]3CSSC[C@@H](C(=O)N[C@@H](CCCCN)C(=O)N[C@@H](Cc4ccc(O)cc4)C(=O)N[C@@H](CO)C(=O)N[C@H](C(=O)N[C@H](C(=O)N[C@@H](CCCCN)C(=O)O)[C@@H](C)CC)[C@@H](C)CC)NC(=O)[C@H](Cc4c[nH]c5ccccc45)NC(=O)[C@H](CCCNC(=N)N)NC(=O)[C@H]([C@@H](C)O)NC(=O)[C@H](CCCCN)NC(=O)[C@H](CCCCN)NC(=O)[C@H](CO)NC(=O)[C@H](CSSC[C@H](NC(=O)[C@H](C)NC(=O)[C@H](CCCCN)NC(=O)[C@H](Cc4ccccc4)NC1=O)C(=O)N[C@@H](CC(N)=O)C(=O)N1CCC[C@H]1C(=O)N[C@@H](CO)C(=O)N[C@@H](CC(N)=O)C(=O)N[C@@H](CC(=O)O)C(=O)N[C@@H](CCC(N)=O)C(=O)N3)NC(=O)[C@H](C(C)C)NC(=O)[C@H](CC(C)C)NC(=O)[C@H](CCCCN)NC(=O)[C@H](CO)NC(=O)[C@H](CO)NC(=O)[C@H](CCCCN)NC2=O`, the IC50 was above 7.14 µM in test [1] and 0.24 µM in test [2].

Turning to `CC[C@H](C)[C@H](NC(=O)[C@H](CCC(N)=O)NC(=O)[C@H](Cc1ccc(O)cc1)NC(=O)[C@H](CCCCN)NC(=O)[C@@H]1CSSC[C@@H]2NC(=O)[C@H](CCC(N)=O)NC(=O)[C@H](CC(=O)O)NC(=O)[C@H](CC(N)=O)NC(=O)[C@H](CO)NC(=O)[C@@H]3CCCN3C(=O)[C@H](CC(N)=O)NC(=O)[C@@H]3CSSC[C@H](NC(=O)[C@H](C(C)C)NC(=O)[C@H](CC(C)C)NC(=O)[C@H](CCCCN)NC(=O)[C@H](CO)NC(=O)[C@H](CO)NC(=O)[C@H](CCCCN)NC(=O)[C@H](CSSC[C@H](NC(=O)[C@H](CCC(=O)O)NC(=O)[C@@H]4CCCN4C(=O)CN)C(=O)N[C@@H](CC(C)C)C(=O)N[C@@H](CCC(=O)O)C(=O)N[C@@H]([C@@H](C)CC)C(=O)N[C@@H](Cc4ccccc4)C(=O)N[C@@H](CCCCN)C(=O)N[C@@H](C)C(=O)N3)NC2=O)C(=O)N[C@@H](CO)C(=O)N[C@@H](CCCNC(=N)N)C(=O)N[C@@H](CCCCN)C(=O)N[C@@H]([C@@H](C)O)C(=O)N[C@@H](CCCNC(=N)N)C(=O)N[C@@H](Cc2ccc(O)cc2)C(=O)N1)C(=O)NCC(=O)N[C@@H](CCCCN)C(=O)O`, the 50% inhibitory concentration (IC50) amounted to 36.6 µM in test [1] and 1.69 µM in test [2].

Consider `CC[C@H](C)[C@H](NC(=O)[C@H](CCC(N)=O)NC(=O)[C@H](Cc1ccc(O)cc1)NC(=O)[C@H](CCCCN)NC(=O)[C@@H]1CSSC[C@@H]2NC(=O)[C@H](CCC(N)=O)NC(=O)[C@H](CC(=O)O)NC(=O)[C@H](CC(N)=O)NC(=O)[C@H](CO)NC(=O)[C@@H]3CCCN3C(=O)[C@H](CC(N)=O)NC(=O)[C@@H]3CSSC[C@H](NC(=O)[C@H](C(C)C)NC(=O)[C@H](CC(C)C)NC(=O)[C@H](CCCCN)NC(=O)[C@H](CO)NC(=O)[C@H](CO)NC(=O)[C@H](CCCCN)NC(=O)[C@H](CSSC[C@H](NC(=O)[C@H](CCC(=O)O)NC(=O)[C@@H]4CCCN4C(=O)CN)C(=O)N[C@@H](CC(C)C)C(=O)N[C@@H](CCC(=O)O)C(=O)N[C@@H]([C@@H](C)CC)C(=O)N[C@@H](Cc4ccccc4)C(=O)N[C@@H](CCCCN)C(=O)N[C@@H](C)C(=O)N3)NC2=O)C(=O)N[C@@H](CO)C(=O)N[C@@H](CCCNC(=N)N)C(=O)N[C@@H](C)C(=O)N[C@@H]([C@@H](C)O)C(=O)N[C@@H](CCCNC(=N)N)C(=O)N[C@@H](Cc2c[nH]c3ccccc23)C(=O)N1)C(=O)NCC(=O)N[C@@H](CCCCN)C(=O)O`, for which the half-maximal inhibitory concentration (IC50) in test [1] is above 2.95 µM; in test [2], 0.26 µM.

As to `CC[C@H](C)[C@@H]1NC(=O)[C@H](CCC(=O)O)NC(=O)[C@H](CC(C)C)NC(=O)[C@@H](NC(=O)[C@H](CCC(=O)O)NC(=O)[C@@H]2CCCN2C(=O)CN)CSSC[C@@H]2NC(=O)[C@@H]3CSSC[C@@H](C(=O)N[C@@H](CCCCN)C(=O)N[C@@H](Cc4ccc(O)cc4)C(=O)N[C@@H](CCC(N)=O)C(=O)N[C@H](C(=O)N[C@H](C(=O)N[C@@H](CCCCN)C(=O)O)[C@@H](C)CC)[C@@H](C)CC)NC(=O)[C@H](Cc4c[nH]c5ccccc45)NC(=O)[C@H](CCCNC(=N)N)NC(=O)[C@H]([C@@H](C)O)NC(=O)[C@H](CCCCN)NC(=O)[C@H](CCCNC(=N)N)NC(=O)[C@H](CO)NC(=O)[C@H](CSSC[C@H](NC(=O)[C@H](C)NC(=O)[C@H](CCCCN)NC(=O)[C@H](Cc4ccccc4)NC1=O)C(=O)N[C@@H](CC(N)=O)C(=O)N1CCC[C@H]1C(=O)N[C@@H](CO)C(=O)N[C@@H](CC(N)=O)C(=O)N[C@@H](CC(=O)O)C(=O)N[C@@H](CCC(N)=O)C(=O)N3)NC(=O)[C@H](C(C)C)NC(=O)[C@H](CC(C)C)NC(=O)[C@H](CCCCN)NC(=O)[C@H](CO)NC(=O)[C@H](CO)NC(=O)[C@H](CCCCN)NC2=O`, the results for the IC50 in test [1] and in test [2] were 1.42 µM and 0.06 µM, respectively.

For the compound `CC[C@H](C)[C@H](NC(=O)[C@H](CCC(N)=O)NC(=O)[C@H](Cc1ccc(O)cc1)NC(=O)[C@H](CCCCN)NC(=O)[C@@H]1CSSC[C@@H]2NC(=O)[C@H](CCC(N)=O)NC(=O)[C@H](CC(=O)O)NC(=O)CNC(=O)[C@H](CO)NC(=O)[C@@H]3CCCN3C(=O)[C@H](CC(N)=O)NC(=O)[C@@H]3CSSC[C@H](NC(=O)[C@H](C(C)C)NC(=O)[C@H](CC(C)C)NC(=O)[C@H](CCCCN)NC(=O)[C@H](CO)NC(=O)[C@H](CO)NC(=O)[C@H](CCCCN)NC(=O)[C@H](CSSC[C@H](NC(=O)[C@H](CCC(=O)O)NC(=O)[C@@H]4CCCN4C(=O)CN)C(=O)N[C@@H](CC(C)C)C(=O)N[C@@H](CCC(=O)O)C(=O)N[C@@H]([C@@H](C)CC)C(=O)N[C@@H](Cc4ccccc4)C(=O)N[C@@H](CCCCN)C(=O)N[C@@H](C)C(=O)N3)NC2=O)C(=O)N[C@@H](CO)C(=O)N[C@@H](CCCNC(=N)N)C(=O)N[C@@H](CCCCN)C(=O)N[C@@H]([C@@H](C)O)C(=O)N[C@@H](CCCNC(=N)N)C(=O)N[C@@H](Cc2c[nH]c3ccccc23)C(=O)N1)C(=O)NCC(=O)N[C@@H](CCCCN)C(=O)O`, the figures for the 50% inhibitory concentration (IC50) in test [1] and in test [2] were 3.74 µM and 0.19 µM, respectively.

As for `CC[C@H](C)[C@H](NC(=O)[C@H](CCC(N)=O)NC(=O)[C@H](Cc1ccc(O)cc1)NC(=O)[C@H](CCCCN)NC(=O)[C@@H]1CSSC[C@@H]2NC(=O)[C@H](CCC(N)=O)NC(=O)[C@H](CC(=O)O)NC(=O)[C@H](CC(N)=O)NC(=O)[C@H](CO)NC(=O)[C@@H]3CCCN3C(=O)[C@H](CC(N)=O)NC(=O)[C@@H]3CSSC[C@H](NC(=O)[C@H](C(C)C)NC(=O)[C@H](CC(C)C)NC(=O)[C@H](CCCCN)NC(=O)[C@H](CO)NC(=O)[C@H](CO)NC(=O)[C@H](CCCCN)NC(=O)[C@H](CSSC[C@H](NC(=O)[C@H](CCC(=O)O)NC(=O)[C@@H]4CCCN4C(=O)CN)C(=O)N[C@@H](CC(C)C)C(=O)N[C@@H](CCC(=O)O)C(=O)N[C@@H]([C@@H](C)CC)C(=O)N[C@@H](Cc4ccccc4)C(=O)N[C@@H](CCCCN)C(=O)N[C@@H](C)C(=O)N3)NC2=O)C(=O)N[C@@H](CO)C(=O)N[C@@H](CCCNC(=N)N)C(=O)N[C@@H](CCCCN)C(=O)N[C@@H]([C@@H](C)O)C(=O)N[C@@H](CC(N)=O)C(=O)N[C@@H](Cc2c[nH]c3ccccc23)C(=O)N1)C(=O)NCC(=O)N[C@@H](CCCCN)C(=O)O`, the 50% inhibitory concentration (IC50) in test [1] is above 2.59 µM; in test [2], 0.15 µM.

For `CC[C@H](C)[C@H](NC(=O)[C@H](CO)NC(=O)[C@H](Cc1c[nH]c2ccccc12)NC(=O)[C@H](CCCCN)NC(=O)[C@@H]1CSSC[C@@H]2NC(=O)[C@H](CCC(N)=O)NC(=O)[C@H](CC(=O)O)NC(=O)[C@H](CC(N)=O)NC(=O)[C@H](CO)NC(=O)[C@@H]3CCCN3C(=O)[C@H](CC(N)=O)NC(=O)[C@@H]3CSSC[C@H](NC(=O)[C@H](C(C)C)NC(=O)[C@H](CC(C)C)NC(=O)[C@H](CCCCN)NC(=O)[C@H](CO)NC(=O)[C@H](CO)NC(=O)[C@H](CCCCN)NC(=O)[C@H](CSSC[C@H](NC(=O)[C@H](CCC(=O)O)NC(=O)[C@@H]4CCCN4C(=O)CN)C(=O)N[C@@H](CC(C)C)C(=O)N[C@@H](CCCNC(=N)N)C(=O)N[C@@H]([C@@H](C)CC)C(=O)N[C@@H](Cc4ccccc4)C(=O)N[C@@H](CCCCN)C(=O)N[C@@H](C)C(=O)N3)NC2=O)C(=O)N[C@@H](CO)C(=O)N[C@@H](CCCNC(=N)N)C(=O)N[C@@H](CCCCN)C(=O)N[C@@H]([C@@H](C)O)C(=O)N[C@@H](CCCNC(=N)N)C(=O)N[C@@H](Cc2c[nH]c3ccccc23)C(=O)N1)C(=O)NCC(=O)N[C@@H](CCCCN)C(=O)O`, the IC50 in test [1] and in test [2] was 0.02 µM each time.
